Pooled drug test results. Numbers come from NIAID ChemDB, via PubChem.

Common to all: tests in culture; organism: Poliovirus; measure: EC50

Two numbers with a dash give a range or band. ECn is the concentration giving n% inhibition of infection, replication or growth. Lines come from different laboratories, so protocols vary. An empty or dashed field is not shown.

| smiles | strain or isolate | cells | result |
|---|---|---|---|
| OC[C@H]1O[C@@H](c2cncc(Br)c2)[C@@H](O)[C@@H]1O | - | HeLa | ≥100 µg/mL |
| CCC(O)c1ccc2c(c1)Sc1ccccc1O2 | TYPE 3 | BSC-1 | 2–10 µg/mL |
| CO[C@H](CO)[C@@H](O)CCn1ccc(N)nc1=O | TYPE 1 | HeLa | >400 µg/mL |
| CC=NC(=N)c1nc(-c2cccc(OC)c2)n(COCCO)n1 | TYPE 1 | HeLa | >10 µg/mL |
| CC(=O)OCCOCN1C=CC(=O)N(COCCOC(C)=O)S1(=O)=O | TYPE 1 | HeLa | >400 µg/mL |
| Cc1nnc2nc3c(nn12)c1ccccc1n3C | TYPE 1 | BSC-1 | >60 µg/mL |
| c1ccc(C2COc3ccccc3C2)cc1 | TYPE 2 | HEP-2 | >10 µM |
| CO[C@H](CO)[C@@H](O)CCn1cnc2c(=O)[nH]c(N)nc21 | TYPE 1 | HeLa | >400 µg/mL |
| CCCCCCCCCCCCCCCCCCCCCCO | - | VERO | >5 µg/mL |
| NC(=O)c1cncc([C@H]2O[C@H](CO)[C@H](O)[C@@H]2O)c1 | - | HeLa | ≥100 µg/mL |
| NC1CSCON2CCc3c([nH]c4ccccc34)[C@H]12 | TYPE 1 | HeLa | 0.7 µg/mL |
| CC(O)c1ccc2c(c1)Sc1ccccc1S2 | TYPE 3 | BSC-1 | 2–10 µg/mL |
| COc1cc2oc(-c3ccccc3)cc(=O)c2c(OC)c1OC | P1 TYPE (SABIN) | VERO | 32 µg/mL |
| Clc1ccc(C2=Cc3ccccc3OC2)cc1 | IA (TYPE 2) | HEP-2 | <10 µM |
| CO[C@H](CO)[C@@H](O)CCn1cc(C)c(=O)[nH]c1=O | TYPE 1 | HeLa | >400 µg/mL |
| N#Cc1cncc([C@@H]2O[C@H](CO)[C@H](O)[C@@H]2O)c1 | - | HeLa | ≥100 µg/mL |
| CC=NC(=N)c1nc(-c2ccc(C)cc2)n(C/C=C/c2ccccc2)n1 | TYPE 1 | HeLa | >10 µg/mL |
| CCC(=O)c1ccc2c(c1)Sc1ccccc1O2 | TYPE 3 | BSC-1 | <0.4 µg/mL |
| Nc1ncnc2c1ncn2CC[C@H](O)CCO | TYPE 1 | HeLa | >400 µg/mL |
| C=C(N=CC)c1nc(-c2cccc(OC)c2)n(C2O[C@H](CO)[C@@H](O)[C@H](O)[C@H]2O)n1 | TYPE 1 | HeLa | >400 µg/mL |
| CCOc1cc(O)c(C(=O)/C=C/c2ccc(OC)cc2)c(OC)c1 | TYPE 1 | HeLa | >3 µg/mL |
| CC(=O)OCCOCN1C=C(C#N)C(N)=NS1(=O)=O | TYPE 1 | HeLa | >400 µg/mL |
| CN=C(c1ccccc1)c1ccc2nc(N)n(S(=O)(=O)C(C)C)c2c1 | Type 1/Mahoney | BSC-1 | 0.02 µg/mL |
| CC(OC(=O)Nc1ccc2ccccc2c1)c1ccc2c(c1)Sc1ccccc1O2 | TYPE 3 | BSC-1 | >10 µg/mL |
| N#Cc1cncc([C@H]2O[C@H](CO)[C@H](O)[C@@H]2O)c1 | - | HeLa | ≥100 µg/mL |
| CC(=O)c1ccc2c(c1)S(=O)(=O)c1ccccc1O2 | TYPE 3 | BSC-1 | >10 µg/mL |
| Nc1ncnc2c1ncn2C[C@H](O)CO | TYPE 1 | HeLa | >200 µg/mL |
| Nc1ccn([C@@H]2OCC(CO)=C2F)c(=O)n1 | - | - | >100 µg/mL |
| CC=NC(=N)c1nc(-c2ccc(OC)cc2)n(Cc2ccccc2)n1 | TYPE 1 | HeLa | >10 µg/mL |
| OC[C@H]1O[C@@H](c2cncc(Br)c2)[C@@H](O)[C@H]1O | - | HeLa | ≥100 µg/mL |
| Clc1ccc2c(c1)CC(c1ccccc1)CO2 | IA (TYPE 2) | HEP-2 | <10 µM |
| CC=NC(=N)c1nc(-c2ccc(C)cc2)n(Cc2ccccc2)n1 | TYPE 1 | HeLa | >10 µg/mL |
| N#Cc1cncc([C@@H]2O[C@H](CO)[C@@H](O)[C@@H]2O)c1 | - | HeLa | ≥100 µg/mL |
| Nc1ncnc2c1ccn2[C@@H]1C[C@H](O)[C@@H](O)[C@H]1O | TYPE 1 | HeLa | 400 µg/mL |
| CC(=O)OC(C)c1ccc2c(c1)Sc1ccccc1O2 | TYPE 3 | BSC-1 | 0.4–2 µg/mL |
| Clc1ccc2c(c1)C=C(c1ccc(Br)cc1)CO2 | SABIN (TYPE 2) | HEP-2 | >10 µM |
| NC(=S)c1cncc([C@H]2O[C@H](CO)[C@@H](O)[C@@H]2O)c1 | - | HeLa | ≥100 µg/mL |
| CSc1nsc(-c2ccc(C(F)(F)F)cc2)c1C#N | Type 1/Brunhilde | HEP-2 | 1 µM |
| CC(=O)OCCOCN1C(=N)/C(=C(\C)O)C(N)=NS1(=O)=O | TYPE 1 | HeLa | >400 µg/mL |
| Clc1ccc(C2=Cc3cc(Cl)ccc3OC2)cc1 | IA (TYPE 2) | HEP-2 | <10 µM |
| COc1cc2c(cc1OC)[C@@H]1C(N)CSCON1CC2 | TYPE 1 | HeLa | 1 µg/mL |
| C[C@@]1(O)[C@H](O)[C@@H](COP(=O)(O)OP(=O)(O)OP(=O)(O)O)O[C@H]1n1ccc2c(N)ncnc21 | TYPE 3 | VERO | 5.9 µM |
| CC(=O)c1ccc2c(c1)Sc1ccccc1O2 | TYPE 3 | BSC-1 | <0.4 µg/mL |
| CSc1nsc(-c2ccc[n+](C)c2)c1C#N | Type 1/Brunhilde | HEP-2 | 250 µM |
| CCOC(=O)C1=CN(COCCO)S(=O)(=O)NC1=O | TYPE 1 | HeLa | >400 µg/mL |
| N#Cc1csnc1-c1ccccc1 | Type 1/Brunhilde | HEP-2 | >100 µM |
| CC(=O)c1ccc2c(c1)Cc1ccccc1O2 | TYPE 3 | BSC-1 | 0.4 µg/mL |
| CC=NC(=N)c1nc(-c2cccc(OC)c2)n(C/C=C/c2ccccc2)n1 | TYPE 1 | HeLa | >10 µg/mL |
| N#Cc1cc([N+](=O)[O-])ccc1Oc1ccc(Cl)c(Cl)c1 | TYPE 2 | HeLa | ≤0.6 µg/mL |
| COc1ccc2[nH]c3c(c2c1)CCN1OCSCC(N)[C@@H]31 | TYPE 1 | HeLa | 0.02 µg/mL |
| C/C(O)=C1\C(=N)N(COCCO)S(=O)(=O)N=C1N | TYPE 1 | HeLa | >400 µg/mL |

5 of the rows above, restated:

smiles	strain or isolate	cells	result
CO[C@H](CO)[C@@H](O)CCn1ccc(N)nc1=O	TYPE 1	HeLa	>400 µg/mL
CC=NC(=N)c1nc(-c2ccc(C)cc2)n(Cc2ccccc2)n1	TYPE 1	HeLa	>10 µg/mL
CC=NC(=N)c1nc(-c2ccc(C)cc2)n(C/C=C/c2ccccc2)n1	TYPE 1	HeLa	>10 µg/mL
OC[C@H]1O[C@@H](c2cncc(Br)c2)[C@@H](O)[C@@H]1O	-	HeLa	≥100 µg/mL
N#Cc1cncc([C@@H]2O[C@H](CO)[C@H](O)[C@@H]2O)c1	-	HeLa	≥100 µg/mL